Human monoclonal antibodies against the spike receptor-binding domain (heavy:light variable regions). IC50 against pseudoviruses bearing the spike of naturally observed variants; lower = stronger; >10 µg/ml means not reached at the top dose. No active / inactive call. The stated detection limit is 0.0005 µg/ml; values near or below 0.001 µg/ml lie at the floor of the assay.

Assay in all cases: pseudovirus neutralization IC50; higher = weaker neutralization
Assay [1] concerns the target SARS-CoV-2 Omicron BA.1 spike pseudovirus. As to the method:
(§1)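 Single-round VSV luciferase pseudovirus mixed with antibody dilutions for 1 h and put on Huh-7 cells for about a day; IC50 from the dose curve.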

In assay [2] the target is SARS-CoV-2 Omicron BA.2 spike pseudovirus. As to the method: as §1
For assay [3], the target named is SARS-CoV-2 Omicron BA.2.75 spike pseudovirus. As to the method:
as §1

For assay [4], the target named is SARS-CoV-2 Omicron BA.5 spike pseudovirus. The method, then: as §1
The target of assay [5] is SARS-CoV-2 Omicron BQ.1.1 spike pseudovirus. The method, then:
as §1

The target of assay [6] is SARS-CoV-2 Omicron XBB spike pseudovirus. The method, then:
as §1

The target in assay [7] is SARS-CoV-2 early D614G spike pseudovirus. As to the method:
as §1

B1: BD55-6317 (protein)
chain 1: QVQLQETGPGLVKSSGTLSLTCSVSGGSIASRSYLWGWIRQPPGKGLEWIGSFQYTGSRDYNPSLRSRATISADTSKNQLSLKVTSVTAADTAVYYCARQGGGDYYFENWGQGTLVTVSS
chain 2: DIQMTQSPSTLSASVGDRVTITCRASQSVNWWLAWYQQKPGKAPTLLIYKASILESGVPSRFSGSGHGTEFSLTVSSLQPDDFATYYCQQYNDFPYTFGQGTRLEIK
As to B1, the “pseudovirus neutralization IC50” value in assay [1], in assay [2], in assay [3], in assay [4], in assay [5] and in assay [6] was greater than 10 µg/mL throughout. For the same molecule, in assay [7], the “pseudovirus neutralization IC50” value was 0.431 µg/mL.

B2: BD55-6331 (protein)
chain 1: QLQLQESGPGLVKPSETLSLTCTVSGGSISSSSYYWGWIRQPPGKGLEWIGNVYFGGSTFYNPSLKSRVTISVDTSKNLFSLKLTSVTAADTAVYYCAVLRGYSYGYDAFDIWGQGTMVTVSS
chain 2: DIQMTQSPSSLSASVGDRVTITCRASQSISNYLNWYQQKPGKVPKLLIYAASSLQSGVPSRFSGSGSGTDFTLTISSLQPEDFATYYCQQSYSPALVTFGPGTKVQIK
B2: the “pseudovirus neutralization IC50” value in assay [1], in assay [2], in assay [3], in assay [4], in assay [5] and in assay [6] was greater than 10 µg/mL each time. Besides, the “pseudovirus neutralization IC50” value in assay [7] is greater than 10 µg/mL.

B3: BD55-1223 (protein)
chain 1: ELQLVESGGGLVQPGGSLRLSCIGSGYSINSYSMSWVRQAPGKGLEWVAYISTSSRTMYYADSVKGRFTISRDYGENSLSLEMNSLRAEDTAVYYCHIEPVPAAMGFDHWGQGTLVTVSS
chain 2: DIQMTQSPSSLSASIGDRVTITCRASQDIRNSLAWYQQKPGKAPKLLIYAASTLQSGVPSRFRGSGSGTDFTLSISSLQPEDVATYYCQKYDSALRTFGQGTKVEIK
For B3, the “pseudovirus neutralization IC50” value in assay [1], in assay [2], in assay [3], in assay [4], in assay [5] and in assay [6] was greater than 10 µg/mL in each case. For the same molecule, the “pseudovirus neutralization IC50” value in assay [7] came out at 0.0757 µg/mL.

B4: BD55-6323 (protein)
chain 1: QVQLVESGGGVVQPGRSLRLSCAASGFTFSDYGMHWVRQAPGKGLEWVAVIWNDGTYKYYADSVKGRFTISRDNSKNTLFLQMNSLRAEDTAVYYCARDSLCSGGNCYFDYNWFDPWGQGTLVTVSS
chain 2: EIVLTQSPATLSLSPGERATLSCRASQSVSSNLAWYQQKPGQAPRLLISDASNRATGIPARFSGSGSGTDFTLTISSLEPEDFAVYYCQQRHTWPPAYTFGQGTKLEIK
As to B4, the “pseudovirus neutralization IC50” value in assay [1], in assay [2], in assay [3], in assay [4], in assay [5] and in assay [6] was greater than 10 µg/mL in each case. For the same molecule, the “pseudovirus neutralization IC50” value in assay [7] is 1.42 µg/mL.

B5: BD55-6312 (protein)
chain 1: QVQLVQSGSELKKPGASVKVSCKASGYTFTSYTMNWVRQAPGQGLEWMGWINTNTGNPMYAQGFTGGRFVFSLDTSVSTAYLQISSLKAEDTAVYYCARLNGDSSNWNTWPIDYWGQGALVTVSS
chain 2: SYVLTQPPSVSVAPGQTARITCAGDSIGSKNVHWYQQKPGQAPVLVISYDSDRPSGIPERFSGSNSGNTATLTLSRVEAGDEADYYCQVWDSTTGHPGYVFGTGTKVTVL
In the case of B5, the “pseudovirus neutralization IC50” value in assay [1], in assay [2], in assay [3], in assay [4], in assay [5] and in assay [6] was greater than 10 µg/mL each time. Further, in assay [7], the “pseudovirus neutralization IC50” value was greater than 10 µg/mL.

B6: BD55-6327 (protein)
chain 1: EVQLLDSGGGLVQPGGSLRLSCAASGFTFSAYAMTWVRQAPGKGLEWVSSITDSGAGAFYADSVKGRFTVSRDNSKNTLYLQMNSLRAEDTAVYYCAREILVPTAMVFDSWGQGALVSVSS
chain 2: DIVMTQSPDSLAVSLGERATINCKSSQNVLYRADSKNYLAWYQQKPGQPPKLLIYWASTRESGVPDRFSGSGSGTDFTLTISSLQAEDVAVYYCQQYYSTPGITFGQGTRLEIK
As to B6, the “pseudovirus neutralization IC50” value in assay [1], in assay [2], in assay [3], in assay [4], in assay [5] and in assay [6] was greater than 10 µg/mL in each case.

B7: BD55-6329 (protein)
chain 1: EVQLVESGGGLIQPGGSLRLSCAASGFTVSRNLMGWVRQAPGKGLEWLAVIYSGGTTYFADSVRGRFTISRDNSKNTLSLQMNSLTAEDTAVYYCAGEQGSGRWRGTLFDSWGQGTLVTVSS
chain 2: QSVLTQPPSVSGAPGQRVTISCTGSSSNIGAGYDVHWYQQLPGTAPKLLMYGNSNRPSGVPDRFSGSKSGTSASLTITGLQAEDEADYYCQSYDSSLSVLYVFGSGTRVTVL
Regarding B7, the “pseudovirus neutralization IC50” value in assay [1] is 0.987 µg/mL; in assay [2], greater than 10 µg/mL; in assay [3], greater than 10 µg/mL; in assay [4], greater than 10 µg/mL; in assay [5], greater than 10 µg/mL; in assay [6], greater than 10 µg/mL. Also, the “pseudovirus neutralization IC50” value in assay [7] was 3.74 µg/mL.

The values are drawn from the supplement of paper PMC9931576.
